Pooled drug test results. Numbers come from NIAID ChemDB, via PubChem.

All rows: growth or infection tests; organism: HIV-1; method: p24; endpoint: EC50

ECn: concentration that inhibits the pathogen or its effect by n%. a–b is a range or a potency band. Rows are shuffled and stem from different studies.

COC(=O)[C@H](C)NP(=O)(OC[C@@H]1C=C[C@H](n2cc(C)c(=O)[nH]c2=O)O1)Oc1ccc(Br)cc1 ; cells: PBMC ; changes: RT-Y181C ; strain: A17 NNRTI-resistant lab strain ; result: <0.001 µM
O=c1[nH]cnc2c1ncn2[C@H]1CC[C@@H](CO)O1 ; cells: PBMC ; changes: RT-M184V ; strain: Recombinant ; result: 5–10 µM
O=C1N(Cc2ccc(CO)cc2)[C@H](Cc2ccccc2)[C@H](O)[C@@H](O)[C@@H](Cc2ccccc2)N1Cc1ccc(CO)cc1 ; cells: MT-4 ; changes: PR-M46I L63P ; strain: NL4-3 ; result: <0.4 µM
O=c1[nH]cnc2c1ncn2[C@H]1CC[C@@H](CO)O1 ; cells: PBMC ; strain: HXB2D ; result: 2.8 µM
[NH4+] ; cells: PBL ; strain: IIIB ; result: >100 µg/mL
CCc1cc(NCc2nc3c(Cl)ccc(Cl)c3o2)c(=O)[nH]c1C ; cells: MT-4 ; strain: IIIB ; result: <0.025 µM
Cc1cn([C@H]2C=C[C@@H](CO)O2)c(=O)[nH]c1=O ; cells: PBMC ; strain: HXB2D ; result: 0.42 µM
CC1=C(C(=O)N2CCC(C)(N3CCN(C(c4cccc(F)c4)C4CCN(S(=O)(=O)C5CC5)CC4)[C@@H](C)C3)CC2)C(C)N=CN1 ; cells: PBMC ; strain: M-tropic ; result: 0.001 µM
O=C(N[C@H]1c2ccccc2OC[C@H]1O)[C@H](Cc1nnco1)C[C@H](O)CN1CCN(Cc2ccc(-c3ccc(Cl)cc3)o2)C[C@H]1C(=O)NCC(F)(F)F ; cells: MT-4 ; strain: NL4-3 WT ; result: <0.063 µM
Nc1ccn([C@H]2CC[C@@H](CO)O2)c(=O)n1 ; cells: MT-4 ; strain: IIIB ; result: 0.45 µM
CC(C)(c1ncc(-c2ccc(F)cc2)o1)N1CCN(C[C@@H](O)C[C@@H](Cc2nnc(-c3ccccc3)o2)C(=O)N[C@H]2c3ccccc3OC[C@H]2O)[C@H](C(=O)NCC(F)(F)F)C1 ; cells: MT-4 ; changes: PR-L10I M36I N37D M46I R57K L63P A71V G73S I84V L90M I93L ; strain: V-18 Clinical isolate ; result: <0.063 µM
Cc1cc(=O)oc2c3c(ccc12)OC(C)(C)[C@H](OC(=O)C12CCC(C)(C(=O)O1)C2(C)C)[C@@H]3OC(=O)C12CCC(C)(C(=O)O1)C2(C)C ; cells: H9 ; strain: IIIB ; result: 0.0059 µM
COc1cncc(-c2cnc(C(C)(C)N3CCN(C[C@@H](O)C[C@@H](Cc4nnc(-c5ccccc5)o4)C(=O)N[C@H]4c5ccccc5OC[C@H]4O)[C@H](C(=O)NCC(F)(F)F)C3)o2)c1 ; cells: MT-4 ; strain: NL4-3 WT ; result: <0.125 µM
CCc1cc(NCc2nc3c(C)ccc(C)c3o2)c(=O)[nH]c1C ; cells: MT-4 ; strain: MN ; result: <0.05 µM
O=c1[nH]cnc2c1ncn2[C@H]1CC[C@@H](CO)O1 ; cells: MT-4 ; changes: RT-K65R M184V ; strain: HXB2-D (RT K65R M184V) ; result: 34.2 µM
Cc1cn([C@H]2C[C@H](N=[N+]=[N-])[C@@H](CO)O2)c(=O)[nH]c1=O ; cells: MM + M/M ; strain: BaL ; result: 0.02 µM
COc1cc(=O)n(C)c2ccccc12 ; cells: H9 ; strain: IIIB ; result: 0.625 µg/mL
CCC[C@@]1(CCc2ccccc2)CC(O)=C([C@H](CC)c2cccc(NS(=O)(=O)c3ccc(C(F)(F)F)cn3)c2)C(=O)O1 ; cells: PBMC ; strain: Isolate N. Amer 4 ; result: <0.15 µM
Nc1nc(=O)n([C@H]2CO[C@@H](CO)S2)cc1F ; cells: PBMC ; strain: HXB2D ; result: 3 µM
CCCc1nnc(C[C@H](C[C@H](O)CN2CCN(Cc3ccc(-c4ccc(Cl)cc4)o3)C[C@H]2C(=O)NCC(F)(F)F)C(=O)N[C@H]2c3ccccc3OC[C@H]2O)o1 ; cells: MT-4 ; strain: NL4-3 WT ; result: <0.008 µM
COc1c(O)ccc2c1cnc1c3cc4c(cc3ccc21)OCO4 ; cells: H9 ; strain: IIIB ; result: <0.1 µg/mL
Nc1ccn([C@@H]2CS[C@H](CO)O2)c(=O)n1 ; cells: PBMC ; changes: RT-M184V ; strain: Recombinant ; result: 5–10 µM
Nc1nc(=O)n([C@@H]2CO[C@H](CO)S2)cc1F ; cells: PBMC ; strain: HXB2D ; result: 1.4 µM
COc1ccc2c(OC)c3ccoc3nc2c1OC ; cells: H9 ; strain: IIIB ; result: 7.41 µg/mL
CC(C)c1nc(CN(C)C(=O)N[C@H](C(=O)N[C@@H](Cc2ccccc2)C[C@H](O)[C@H](Cc2ccccc2)NC(=O)OCc2cncs2)C(C)C)cs1 ; cells: MT-4 ; strain: NL4-3 ; result: <0.08 µM
CCCc1nnc(C[C@H](C[C@H](O)CN2CCN(C(C)(C)c3ncc(-c4ccc(F)cc4)o3)C[C@H]2C(=O)NCC(F)(F)F)C(=O)N[C@H]2c3ccccc3OC[C@H]2O)o1 ; cells: MT-4 ; strain: NL4-3 WT ; result: <0.016 µM
CC(C)CN(C[C@@H](O)[C@H](Cc1ccccc1)NC(=O)[C@H](CC(N)=O)NC(=O)c1ccc2ccccc2n1)C(=O)NC(C)(C)C ; cells: MT-4 ; changes: PR-L63P ; strain: NL4-3 ; result: <0.2 µM
CC(C)(c1ncc(-c2ccc(Cl)cc2)o1)N1CCN(C[C@@H](O)C[C@@H](Cc2nnco2)C(=O)N[C@H]2c3ccccc3OC[C@H]2O)[C@H](C(=O)NCC(F)(F)F)C1 ; cells: MT-4 ; changes: PR-L10I M46I I54V Q58E L63P I64V V77I V82F I84V L90M I93L ; strain: K-60 Clinical isolate ; result: <0.063 µM
Cc1cn([C@H]2C[C@H](N=[N+]=[N-])[C@@H](CO)O2)c(=O)[nH]c1=O ; cells: PBMC ; changes: RT-M41L E44D D67N T69D L210W T215Y ; strain: T156-3 Clinical isolate ZDV-resistant ; result: >3.2 µM
COc1c2ccoc2nc2c(OC)cccc12 ; cells: H9 ; strain: IIIB ; result: <0.1 µg/mL
Cc1nnc(C[C@H](C[C@H](O)CN2CCN(C(C)(C)c3ncc(-c4ccc(Cl)cc4)o3)C[C@H]2C(=O)NCC(F)(F)F)C(=O)N[C@H]2c3ccccc3OC[C@H]2O)o1 ; cells: MT-4 ; strain: NL4-3 WT ; result: <0.25 µM